Measurements as given in publication PMC6410080 (Viruses, 2019).
Structures can show the parent of a compound that is named as a salt. Where two headings read alike, the source gives them in different places.

Experiments:
[1] = system: SFV; format: cell-based, Semliki Forest virus
[2] = system: DENV-2; experiment: DENV-2 infection assay / secondary screen (E protein staining); format: cell-based, dengue virus serotype 2

SMILES	SI [1]	SI DENV-2 (7 + 17 h) ([2]; TC50/IC50, Huh7, 7 + 17 h)	SI DENV-2 (24 h) ([2]; TC50/IC50, Huh7, 24 h)	SI SFV (7 h) [1]	SI DENV-2 (7 + 17 h) [2]	SI DENV-2 (24 h) [2]
CCN(CC)Cc1cc(Nc2ccnc3cc(Cl)ccc23)ccc1O [Amodiaquine, Amodiaquine dihydrochloride dihydrate]	>5.9	3.5	1.1	–	–	–
CC(C)COCC(CN(Cc1ccccc1)c1ccccc1)N1CCCC1 (centres unmarked) [Bepridil, Bepridil hydrochloride]	3.7	3.2	1.9	3.7	–	–
CNc1ccc2oc(C[C@H]3O[C@@]4(CC[C@H]3C)O[C@H]([C@H](C)C(=O)c3ccc[nH]3)[C@H](C)C[C@H]4C)nc2c1C(=O)O [Calcimycin]	6.8	–	–	6.8	>11.3	17.6
CCCCN(CCCC)CCC(O)c1cc2c(Cl)cc(Cl)cc2c2cc(C(F)(F)F)ccc12 (centres unmarked) [Halofantrine, Halofantrine hydrochloride]	2.5	–	–	–	–	–
CCOC(=O)C1=C(C)NC(C)=C(C(=O)OCC)C1c1ccccc1/C=C/C(=O)OC(C)(C)C [Lacidipine]	1.2	–	–	–	–	–
O=C1c2c(O)ccc(O)c2C(=O)c2c(NCCNCCO)ccc(NCCNCCO)c21 [Mitoxantrone, Mitoxantrone dihydrochloride]	–	4.0	2.2	6.2	–	–
CC[C@@]1([C@@H]2O[C@@H]([C@H]3O[C@@](O)(CO)[C@H](C)C[C@@H]3C)C[C@@H]2C)CC[C@H]([C@]2(C)CC[C@]3(C[C@H](O)[C@@H](C)[C@@H]([C@@H](C)[C@@H](OC)[C@H](C)C(=O)O)O3)O2)O1 [Monensin, Monensin sodium salt]	>45	>11.1	–	>45	–	–
Cc1ccc(S(=O)(=O)N[C@@H](Cc2ccccc2)C(=O)CCl)cc1 [N-p-Tosyl-L-PCK, N-p-Tosyl-L-phenylalanine chloromethyl ketone]	–	1.2	4.2	–	–	–
C=C1C(=O)O[C@H]2[C@H]1CC/C(C)=C/CC[C@@]1(C)O[C@@H]21 [Parthenolide]	–	2.9	1.6	3.5	–	–
O=C(c1ccc(OCCN2CCCCC2)cc1)c1c(-c2ccc(O)cc2)sc2cc(O)ccc12 [Raloxifene, Raloxifene hydrochloride]	>3.3	4.4	2.3	>3.3	–	–
O=[N+]([O-])c1ccc2c(c1)S(=O)(=O)C=C2 [Stattic]	–	5.8	10.8	–	–	–
CC(=O)/C=C1\C(=O)N(C)c2ccccc21 [Supercinnamaldehyde]	–	3.9	1.7	–	–	–
